Results of unrelated studies side by side (data: NIAID ChemDB).

Shared fields: tests in culture; organism: HIV-2; cells: MT-4; measure: EC50

Conditions beyond the fields shown may differ between rows. Blank or dashed fields: not listed here. ECn: concentration that inhibits the pathogen or its effect by n%.

structure | strain | read by | value
CO[Si](OC[C@H]1O[C@@H](n2cc(C)c(=O)n(C)c2=O)[C@H](O[Si](C)(C)C(C)(C)C)C12OS(=O)(=O)C=C2N)(c1ccccc1)C(C)(C)C | ROD | syncytia | >6.6 µM
CCNC(=O)c1cnnn1C1OC(CO[Si](C)(C)C(C)(C)C)C2(OS(=O)(=O)C=C2N)C1O[Si](C)(C)C(C)(C)C | ROD | cytopathic effect | >250 µM
C#Cc1ccc(Nc2nccc(Oc3c(C)cc(-c4cn(Cc5ccc([N+](=O)[O-])cc5)nn4)cc3C)n2)cc1 | ROD | MTT | >160 µM
Cc1cn([C@@H]2O[C@H](COCc3ccccc3)C3(OS(=O)(=O)C=C3N)[C@H]2O[Si](C)(C)C(C)(C)C)c(=O)[nH]c1=O | ROD | syncytia | >6 µM
CN=C1N(C)C(=O)OC12[C@@H](CO[Si](C)(C)C(C)(C)C)O[C@@H](n1cc(C)c(=O)n(C)c1=O)[C@@H]2O[Si](C)(C)C(C)(C)C | ROD |  | >7 µM
CC(C)CN(C[C@@H](O)[C@H](Cc1ccccc1)NC(=O)O[C@H]1CCOC1)S(=O)(=O)c1ccc(N)cc1 | ZY |  | 0.34 µM
Nc1ncnc2c1ncn2CCOCP(=O)(O)O | ROD | cytopathic effect / trypan blue | 7.5 µM
CCN(C)C(=O)c1cnnn1C1OC(CO[Si](C)(C)C(C)(C)C)C2(OS(=O)(=O)C=C2N)C1O[Si](C)(C)C(C)(C)C | ROD | cytopathic effect | >250 µM
Cn1ncc2c1S(=O)(=O)N(Cc1cccc(Cl)c1)C(=O)N2Cc1cccc(Cl)c1 | ROD | cytopathic effect / MTT | >277.2 µM
O=C1CCSC(c2c(F)cccc2F)N1Cc1ccco1 | ROD | cytopathic effect | 50.7 µM
Cn1ncc2c1S(=O)(=O)N(Cc1cccc(Cl)c1)C(=O)N2Cc1ccccc1C#N | ROD | cytopathic effect / MTT | >233.3 µM
C#Cc1ccc(Nc2nccc(Oc3c(C)cc(-c4cn(Cc5cccc(C(=O)OC)c5)nn4)cc3C)n2)cc1 | ROD | MTT | >4.78 µM
O=C(N/N=C/c1ccc([N+](=O)[O-])cc1)c1csc(N2N=C(c3ccccc3)CC2c2ccc(Cl)cc2)n1 | ROD | MTT / absorbance | >105.9 µM
Cn1ncc2c1S(=O)(=O)N(Cc1cccc(Cl)c1)C(=O)N2Cc1ccccc1F | ROD | cytopathic effect / MTT | >257.8 µM
Cc1ccc(CN2C(=O)CSC2c2c(F)cccc2Cl)o1 | ROD | cytopathic effect | 15.1 µM
Cn1ncc2c1S(=O)(=O)N(Cc1cccc(Cl)c1)C(=O)N2Cc1ccc(Cl)cc1 | ROD | cytopathic effect / MTT | >246.1 µM
O=C(N/N=C/c1cc([N+](=O)[O-])ccc1Cl)c1csc(N2N=C(c3ccccc3)CC2c2ccc(Cl)cc2)n1 | ROD | MTT / absorbance | >125 µM
CN(C)C(=O)c1cnnn1[C@@H]1O[C@H](CO[Si](C)(C)C(C)(C)C)C2(OS(=O)(=O)C=C2N)[C@H]1O[Si](C)(C)C(C)(C)C | ROD | cytopathic effect | >30 µM
C#Cc1ccc(Nc2nccc(Oc3c(C)cc(-c4cn(CC(=O)OC)nn4)cc3C)n2)cc1 | ROD | MTT | >10.35 µM
CCc1c(Sc2ccccc2)n(COCc2ccccc2)c(=O)[nH]c1=O | ROD | cytopathic effect / MTT | >30 µM
O=C1CSC(c2c(F)cccc2F)N1c1cccc(C(F)(F)F)c1 | ROD | cytopathic effect | 12.2 µM
C#Cc1ccc(Nc2nccc(Oc3c(C)cc(-c4cn(Cc5ccc(O)cc5)nn4)cc3C)n2)cc1 | ROD | MTT | >2.1 µM
Cc1cn([C@@H]2O[C@H](CO[Si](C)(C)C(C)(C)C)C3(OC(=O)N(C)C3=N)[C@H]2O[Si](C)(C)C(C)(C)C)c(=O)n(C)c1=O | ROD |  | >175 µM
CCCN(C)C(=O)Oc1nsnc1-c1c(Cl)cccc1Cl | EHO | cytopathic effect | >28.5 µM
Cc1cn([C@@H]2O[C@H](CO[Si](c3ccccc3)(c3ccccc3)C(C)(C)C)C3(OS(=O)(=O)C=C3N)[C@H]2O[Si](c2ccccc2)(c2ccccc2)C(C)(C)C)c(=O)[nH]c1=O | ROD | syncytia | >150 µM
C#Cc1ccc(Nc2nccc(Oc3c(C)cc(-c4cn(CC(=O)Nc5ccc(Br)cc5)nn4)cc3C)n2)cc1 | ROD | MTT | >19.78 µM
CC(C)(C)[Si](C)(C)OCC1OC(n2nncc2C(=O)NC2CC2)C(O[Si](C)(C)C(C)(C)C)C12OS(=O)(=O)C=C2N | ROD | cytopathic effect | >250 µM
O=C1CSC(c2c(F)cccc2Cl)N1c1cccc(C(F)(F)F)c1 | ROD | cytopathic effect | 10.6 µM
Cc1ccc(/C=N/NC(=O)c2csc(N3N=C(c4ccccc4)CC3c3ccc(Cl)cc3)n2)cc1 | ROD | MTT / absorbance | >125 µM
Cn1ncc2c1S(=O)(=O)N(Cc1cccc(Cl)c1)C(=O)N2Cc1ccccc1Cl | ROD | cytopathic effect / MTT | >277.2 µM
COc1ccc(/C=N/NC(=O)c2csc(N3N=C(c4ccccc4)CC3c3ccc(Cl)cc3)n2)cc1 | ROD | MTT / absorbance | >125 µM
Cn1ncc2c1S(=O)(=O)N(Cc1cccc(Cl)c1)C(=O)N2 | ROD | cytopathic effect / MTT | >232.2 µM
O=C(N/N=C/c1cccc(O)c1)c1csc(N2N=C(c3ccccc3)CC2c2ccc(Cl)cc2)n1 | ROD | MTT / absorbance | >66.85 µM
C[C@H](Cn1cnc2c(N)nc(N)nc21)OCP(=O)(O)O | ROD | cytopathic effect / trypan blue | 0.18 µM